Experimental data from patent EP3904368A2.

Key:
[1] = target: Acetylcholine receptor on AchR-overexpressed TE671 cells; experiment: cell-based or functional assay
[2] = target: Acetylcholine receptor on AchR-overexpressed TE671 cells; experiment: cell-based or functional assay; remark: listed apart in the source

Molecule	IC50 value for AchR (inhibition of AchR action, TE671 cells) [1] [nM]	AchR inhibitory effect, fold against Spep-2 [2] [times]	IC50 value for AchR (inhibition of AchR action, TE671 cells) [2] [nM]	AchR inhibitory rate (400 µM nicotine, peptide at 20 µM) [2] [%]	inhibitory ability on nicotinic acetylcholine receptors, multiple of Spep-2 [2] [times]
bungarotoxin (from UniProt P60615 22-95)	7.5				
WTWKGRKSLLR (modifications not checked) [Palmitoyl-Spep-2]		10	75		
SNVKRKRGRCKPYR (modifications not checked) [L3-37]				100	32
RYAKHRKRQTR (modifications not checked) [L2-110]				100	8
PNGKVRKRIRRRYF (modifications not checked) [L3-28]				100	16
WTWKGRKSLLR (modifications not checked) [Spep-2]			750	10	
RARKKRKSLLRRQV (modifications not checked) [L3-27]				100	8
RFRRGVRR (modifications not checked) [L1-13]				100	

Read-outs that look alike come from different tables or passages of the source.
